For experiment [1], the system named is L1210. Put plainly: Antitumor activity against mouse L1210 cells allografted in mouse at 500 mg/kg, ip began on day 1 halved compound dose ended at […], ip measured on day 30. Format: functional, organism-based. A digest of the protocol:
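Female or male mice bearing L1210 lymphoid leukemia were tested under the NCI standard protocol. Dosing was ip, day 1 only, in aqueous Tween-80, at halved doses starting at 500 mg/kg and generally ending at 62.5 mg/kg. Mean survival time was assessed on day 30, and T/C ≥125% was taken as active.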

The test system of experiment [2] is KB. Put plainly: Cytotoxicity against human KB cells. Format: functional, cell-based.

Molecules are shown by their SMILES. Active and inactive are the calls of the source. The rule behind the calls is not given here.

With `Cc1ccc(NP(=O)(Cl)N(CCCl)CCCl)cc1` (centres undefined), in experiment [1], the outcome was inactive. The result in experiment [2] was Active.

As to `NP(=O)(Oc1ccc([N+](=O)[O-])cc1)N(CCCl)CCCl` (centres undefined), the result in experiment [1] and in experiment [2] was inactive.

The values are drawn from ChEMBL document CHEMBL3228013 (J Med Chem, 1979).
